Results of unrelated studies side by side (data: NIAID ChemDB).

Common to all: tests on isolated targets

Percent inhibition refers to the dose given; in toxicity tests it is the harm to the cells. Conditions beyond the fields shown may differ between rows. Fold resistance: result on the changed form divided by that on wild type. ICn is the concentration giving n% inhibition.

O=C(O)CCN1C(=O)C(=Cc2ccc(-c3cc(C(F)(F)F)cc(C(F)(F)F)c3)o2)SC1=S ; species: Bovine viral diarrhea virus ; target: NS5 polymerase ; measure: IC50 ; result: ≤1 µM
O[C@@H]1[C@@H](O)[C@@H](NCc2ccccc2)[C@H]2O[C@H]2[C@H]1O ; species: Aspergillus niger ; tested at: 100 µM ; target: Amyloglucosidase ; measure: inhibition ; result: 0%
CCCCc1ccc(-c2ccc(C=C3SC(=S)N(c4ccc(C(=O)O)cc4)C3=O)o2)cc1 ; species: Bovine viral diarrhea virus ; target: NS5 polymerase ; measure: IC50 ; result: ≤1 µM
Fc1cccc(-c2cncc(N3CCN(c4ccccc4F)CC3)n2)c1 ; species: Cytomegalovirus ; target: UL97 kinase ; measure: IC50 ; result: <100 µM
Oc1ccc(CN[C@@H]2[C@H](O)[C@@H](O)[C@H](O)[C@@H]3O[C@H]23)cc1 ; species: Aspergillus niger ; tested at: 100 µM ; target: Amyloglucosidase ; measure: inhibition ; result: 16%
Clc1cc(CN2CCCNCCNCCCNCC2)cc(Cl)n1 ; mutations: CXCR4-H281A ; target: CXCR4 ; measure: fold resistance ; result: 6.6
Cc1cc(-c2ccc(C=C3SC(=S)N(c4ccc(C(=O)O)cc4)C3=O)o2)oc1C ; species: Bovine viral diarrhea virus ; target: NS5 polymerase ; measure: IC50 ; result: ≤1 µM
O[C@@H]1[C@@H](O)[C@@H](NCc2ccc(-c3ccncc3)cc2)[C@H]2O[C@H]2[C@H]1O ; species: Aspergillus niger ; tested at: 100 µM ; target: Beta-D-xylosidase ; measure: inhibition ; result: 0%
CC(C)CC(NC(=O)c1ccc2c(c1)nc(-c1ccc3nc(-c4ccccc4)cnc3c1)n2C1CCCCC1)C(=O)O ; species: Hepatitis C virus ; tested at: 100 µM ; target: NS5B polymerase ; measure: inhibition ; result: 95.91%
CC(=O)c1ccc(-c2cncc(N3CCN(c4ccccn4)CC3)n2)cc1 ; species: Cytomegalovirus ; tested at: 1 µM ; target: UL97 kinase ; measure: inhibition ; result: <50%
O=C(O)c1ccc2c(c1)nc(-c1ccc3nc(-c4ccnc5ccccc45)ccc3c1)n2C1CCCCC1 ; species: Hepatitis C virus ; tested at: 33 µM ; target: NS5B polymerase ; measure: inhibition ; result: 102%
Fc1ccc(-c2cncc(N3CCN(c4ccccc4F)CC3)n2)cc1 ; species: Cytomegalovirus ; target: UL97 kinase ; measure: IC50 ; result: <10 µM
COc1ccc2ccc3nc(N)nc(N)c3c2c1 ; species: Cryptosporidium parvum ; strain: TYPE 1 ; target: Dihydrofolate reductase ; measure: IC50 ; result: 1.2 µM
O=C(O)CP(=O)(O)O ; species: Epstein-Barr virus ; tested at: 0.5 µg/mL ; target: DNA polymerase ; measure: inhibition ; result: 26.2%
O=C(O)c1ccc2c(c1)nc(-c1ccc3nc(C(=O)N(c4ccc(Cl)cc4)C4CCCCC4)ccc3c1)n2C1CCCCC1 ; species: Hepatitis C virus ; tested at: 100 µM ; target: NS5B polymerase ; measure: inhibition ; result: 95.68%
Nc1nc(N)c2nc(CN3c4ccccc4Cc4ccccc43)cnc2n1 ; species: Cryptosporidium parvum ; strain: TYPE 1 ; target: Dihydrofolate reductase ; measure: IC50 ; result: 1.7 µM
O=C(O)c1ccc(N2C(=O)C(=Cc3ccc(-c4ccc(F)c(F)c4)o3)SC2=S)cc1 ; species: Bovine viral diarrhea virus ; target: NS5 polymerase ; measure: IC50 ; result: ≤1 µM
CC(=O)c1ccc(N2CCN(c3cncc(-c4ccoc4)n3)CC2)cc1 ; species: Cytomegalovirus ; target: UL97 kinase ; measure: IC50 ; result: <10 µM
O=C(O)c1ccc2nc(-c3ccc4nc(-c5ccccc5-c5ccc(Cl)cc5)ccc4c3)[nH]c2c1 ; species: Hepatitis C virus ; tested at: 33 µM ; target: NS5B polymerase ; measure: inhibition ; result: 67.33%
O=C(O)c1ccc(N2C(=O)C(=Cc3ccc(-c4ccc(Br)cc4)o3)SC2=S)cc1 ; species: Bovine viral diarrhea virus ; target: NS5 polymerase ; measure: IC50 ; result: ≤1 µM
COc1ccccc1C(=O)Nc1nnc(NCc2ccc(F)cc2)s1 ; species: Human cytomegalovirus ; target: Polymerase ; measure: IC50 ; result: >25 µM
O=C(O[C@@H]1O[C@@H]2COC(=O)c3cc4c(O)c(O)c3-c3c(cc(O)c(O)c3O)C(=O)O[C@H]2[C@H](OC(=O)c2cc(O)c(O)c(O)c2)[C@H]1OC(=O)c1cc(O)c(O)c(O)c1Oc1cc2c(c(O)c1O)-c1c(cc(O)c(O)c1O)C(=O)OC[C@H]1OC(O)[C@H](OC(=O)c3cc(O)c(O)c(O)c3O4)[C@@H](OC(=O)c3cc(O)c(O)c(O)c3)[C@@H]1OC2=O)c1cc(O)c(O)c(O)c1 ; species: Epstein-Barr virus ; target: DNA polymerase ; measure: IC50 ; result: 5.2 µg/mL
CC(C)(C)c1ccc(-c2cncc(N3CCN(c4cnccn4)CC3)n2)cc1 ; species: Cytomegalovirus ; tested at: 10 µM ; target: UL97 kinase ; measure: inhibition ; result: >15%
Cc1ccc(-c2ccc(C=C3SC(=S)N(CCC(=O)O)C3=O)o2)nc1 ; species: Bovine viral diarrhea virus ; target: NS5 polymerase ; measure: IC50 ; result: ≤1 µM
Cc1ccccc1-c1cncc(N2CCN(c3ccccc3)CC2)n1 ; species: Cytomegalovirus ; tested at: 10 µM ; target: UL97 kinase ; measure: inhibition ; result: >15%
O=C(Nc1nnc(NCCc2c[nH]c3ccccc23)s1)c1ccc(Br)cc1 ; species: Human cytomegalovirus ; target: Polymerase ; measure: IC50 ; result: >25 µM
N[C@@H]1[C@H](O)[C@@H](O)[C@H](O)[C@H]2O[C@@H]12 ; species: Aspergillus niger ; tested at: 100 µM ; target: Beta-D-xylosidase ; measure: inhibition ; result: 76%
COc1ccc(OC)c(N(C)Cc2cccc3nc(N)nc(N)c23)c1 ; species: Cryptosporidium parvum ; strain: TYPE 2 ; target: Dihydrofolate reductase ; measure: IC50 ; result: >10 µM
CCOc1ccc2ccccc2c1C(=O)Nc1nnc(NCc2ccc(Cl)c(Cl)c2)s1 ; species: Human cytomegalovirus ; target: Polymerase ; measure: IC50 ; result: >25 µM
N#Cc1ccc(-c2cncc(N3CCN(c4ccccn4)CC3)n2)cc1 ; species: Cytomegalovirus ; tested at: 1 µM ; target: UL97 kinase ; measure: inhibition ; result: <50%
Cc1cccc(CC2CCc3nc(N)nc(N)c3C2)c1 ; species: Cryptosporidium parvum ; strain: TYPE 1 ; target: Dihydrofolate reductase ; measure: IC50 ; result: 0.81 µM
Cc1cc(C)cc(-c2cncc(N3CCN(c4cnccn4)CC3)n2)c1 ; species: Cytomegalovirus ; target: UL97 kinase ; measure: IC50 ; result: <100 µM
O=C(O)COc1ccc(-c2ccc(Cl)cc2)c(-c2ccc3cc(-c4nc5cc(C(=O)O)ccc5n4C4CCCCC4)ccc3n2)c1 ; species: Hepatitis C virus ; tested at: 100 µM ; target: NS5B polymerase ; measure: inhibition ; result: 96.94%
O=C(O)c1ccc(N2C(=O)C(=Cc3ccc(-c4ccc(C(F)(F)F)cn4)o3)SC2=S)cc1 ; species: Bovine viral diarrhea virus ; target: NS5 polymerase ; measure: IC50 ; result: ≤1 µM
O=C(NCCS(=O)(=O)O)c1ccc2c(c1)nc(-c1ccc3nc(-c4ccccc4)cnc3c1)n2C1CCCCC1 ; species: Hepatitis C virus ; tested at: 100 µM ; target: NS5B polymerase ; measure: inhibition ; result: 93.58%
CCCCCCCCCCCNc1nnc(NC(=O)c2cc(F)cc(F)c2)s1 ; species: Human cytomegalovirus ; target: Polymerase ; measure: IC50 ; result: >25 µM
O=C(O)c1ccc2c(c1)nc(-c1ccc3cc(-c4ccccc4)cnc3c1)n2C1CCCCC1 ; species: Hepatitis C virus ; tested at: 33 µM ; target: NS5B polymerase ; measure: inhibition ; result: 94.87%
CCOc1ccc2ccccc2c1C(=O)Nc1nnc(NCc2cccc3ccccc23)s1 ; species: Human cytomegalovirus ; target: Polymerase ; measure: IC50 ; result: <25 µM
COc1ccc(-c2cccc([N+](=O)[O-])c2)c(-c2ccc3cc(-c4nc5cc(C(=O)O)ccc5n4C4CCCCC4)ccc3n2)c1 ; species: Hepatitis C virus ; tested at: 100 µM ; target: NS5B polymerase ; measure: inhibition ; result: 98.26%
O=C(Nc1nnc(NCCc2c[nH]c3ccccc23)s1)c1ccc([N+](=O)[O-])o1 ; species: Human cytomegalovirus ; target: Polymerase ; measure: IC50 ; result: <25 µM
O=C(O)C1=CCC(=CN2C(=O)C(=Cc3ccc(-c4cc(C(F)(F)F)ccc4Cl)o3)SC2=S)C=C1 ; species: Bovine viral diarrhea virus ; target: NS5 polymerase ; measure: IC50 ; result: ≤1 µM
COc1ccc(N2CCN(c3cncc(-c4cccc(OC)c4)n3)CC2)cc1 ; species: Cytomegalovirus ; target: UL97 kinase ; measure: IC50 ; result: <100 µM
O=C(O)CCNC(=O)c1ccc2c(c1)nc(-c1ccc3ncc(-c4ccccc4)cc3c1)n2C1CCCCC1 ; species: Hepatitis C virus ; tested at: 100 µM ; target: NS5B polymerase ; measure: inhibition ; result: 70.15%
O=C(Nc1nnc(NCCCN2CCCC2=O)s1)c1ccc2c(c1)C(=O)OC2=O ; species: Human cytomegalovirus ; target: Polymerase ; measure: IC50 ; result: >25 µM